This is an account of results in publication PMC2790717 (Biochemical and Biophysical Research Communications, 2007).

The target of this assay is HIV-1 gp41 fusion peptide N36 (N-terminal heptad repeat peptide) (HIV-1, N-terminal acetyl (Ac-); C-terminal amide (-NH2)). Nature of the assay: native gel or EMSA.

B1: HIV-1 gp41 fusion peptide C34 (C-terminal heptad repeat peptide) (peptide)
peptide: not shown
modifications: N-terminal acetyl (Ac-); C-terminal amide (-NH2)
On to B1, for which the binding result is recorded as “binds”.
